This is an account of results in patent publication EP4162932A1, “ANTIVIRAL HOP CONSTITUENTS” (HHV Hallertauer Hopfenveredelungsgesellschaft mbH, priority 2021, dated 2023).

Structures are written as SMILES.

The data set relates to icSARS-CoV-2-mNG. The data set is classed as cell-based, SARS-CoV-2. To be noted: CC50 divided by IC50, Caco-2 cells.

As for `CC(C)=CCc1c(O)cc2c(c1O)C(=O)C[C@@H](c1ccc(O)cc1)O2` [6-PN, 6-prenylnaringenin], the “therapeutic index (TI)” value was found to be 3.11.

Consider `CC(C)=CCc1c(O)cc(O)c2c1O[C@H](c1ccc(O)cc1)CC2=O` [8-PN, 8-prenylnaringenin], for which the “therapeutic index (TI)” value was determined as 2.38.

Regarding `COc1cc(O)c(CC=C(C)C)c2c1C(=O)CC(c1ccc(O)cc1)O2` (stereo not drawn) [IX, isoxanthohumol], the “therapeutic index (TI)” value is on record as 0.97.
